Results of unrelated studies side by side (data: NIAID ChemDB).

Common to all: whole-cell or culture tests; agent: Herpes simplex virus 1

Conditions beyond the fields shown may differ between rows. Blank or dashed fields: not listed here. Two numbers with a dash give a range or band. ECn: concentration that inhibits the pathogen or its effect by n%.

{"smiles": "O=c1[nH]c(=O)n(COCCO)cc1C#Cc1ccccc1", "cell line": "VERO", "endpoint": "EC50", "read by": "plaque count", "strain or isolate": "F", "result": ">100 µM"}
{"smiles": "C[CH](C)[Sn]([Cl])([Cl])[CH](C)C", "cell line": "HFF", "endpoint": "EC50", "read by": "plaque count", "strain or isolate": "F", "result": "2.4 µg/mL"}
{"smiles": "COc1ccc2nc3cc(Cl)ccc3c(NCCO)c2c1", "cell line": "VERO 76", "endpoint": "EC50", "read by": "plaque count", "result": ">4 µM"}
{"smiles": "N#Cc1c(N)n(COCCO)c2ncnc(N)c12", "cell line": "HFF", "endpoint": "EC50", "read by": "ELISA", "result": ">100 µM"}
{"smiles": "CCCCCCC[CH2][Sn]([Cl])([Cl])[Cl]", "cell line": "HFF", "endpoint": "EC50", "read by": "plaque count", "strain or isolate": "F", "result": "110 µg/mL"}
{"smiles": "Nc1ncnc2c1ncn2CCOCP(=O)(O)O", "conditions": "inside macrophages", "endpoint": "EC50", "result": "0.0128–0.064 µM"}
{"smiles": "C[C@H]1CCC/C=C/[C@@H]2C[C@H](O)C[C@H]2[C@@H](O)/C=C/C(=O)O1", "cell line": "HeLa", "endpoint": "EC50", "read by": "cytopathic effect", "strain or isolate": "KOS", "result": ">200 µg/mL"}
{"smiles": "Nc1ccn(C[C@@H](CO)OCP(=O)(O)O)c(=O)n1", "cell line": "HEL", "endpoint": "EC50", "read by": "cytopathic effect", "strain or isolate": "ACV-resistant", "result": "0.3 µg/mL"}
{"smiles": "CC(=O)c1cn(CC=C(CO)CO)c(=O)[nH]c1=O", "cell line": "VERO", "endpoint": "EC50", "read by": "plaque count", "strain or isolate": "F", "result": ">100 µM"}
{"smiles": "[Br][Sn]([Br])([c]1ccccc1)[c]1ccccc1", "cell line": "HFF", "endpoint": "EC50", "read by": "plaque count", "strain or isolate": "F", "result": "0.45 µg/mL"}
{"smiles": "O=C(O)P(=O)(O)O", "cell line": "HEL", "endpoint": "EC50", "read by": "cytopathic effect", "strain or isolate": "PCV-resistant/A", "result": "23 µg/mL"}
{"smiles": "NC(=S)N/N=C(\\c1ccccn1)C12CC3CC(CC(C3)C1)C2", "cell line": "E6SM", "endpoint": "EC50", "read by": "cytopathic effect", "strain or isolate": "KOS", "result": ">400 µg/mL"}
{"smiles": "OC[C@@H](O)C(O)[C@H](O)CO", "cell line": "HeLa", "endpoint": "EC50", "read by": "cytopathic effect", "strain or isolate": "KOS", "result": ">200 µg/mL"}
{"smiles": "COc1cc2c(cc1-c1cc3cc4ccoc4cc3oc1=O)OCO2", "cell line": "VERO", "endpoint": "EC50", "read by": "plaque count", "strain or isolate": "KOS", "result": ">50 µg/mL"}
{"smiles": "CC(=O)N[C@H](C(=O)N[C@H](C(=O)N1CCC[C@H]1C(=O)NC1(C(=O)O)CC1)C(C)C)C1CCCCC1", "cell line": "HeLa", "endpoint": "EC50", "read by": "cytopathic effect", "strain or isolate": "KOS", "result": ">100 µg/mL"}
{"smiles": "Nc1ncnc2c1ccn2[C@@H]1O[C@H](CO)[C@@H](O)[C@@H]1O", "cell line": "BSC-1", "endpoint": "EC50", "strain or isolate": "S-148", "result": "220 µM"}
{"smiles": "C=C1CCOC2(C(O)C(C)(O)CO)NC(=O)C1(O)NC2=O", "cell line": "HeLa", "endpoint": "EC50", "read by": "cytopathic effect", "strain or isolate": "KOS", "result": ">200 µg/mL"}
{"smiles": "CCCCCC[CH2][Sn]([Cl])([Cl])[CH2]CCCCCC", "cell line": "HFF", "endpoint": "EC50", "read by": "plaque count", "strain or isolate": "F", "result": "15 µg/mL"}
{"smiles": "CCN(CC)CCCC(C)Nc1c2ccc(Cl)cc2nc2ccc(OC)cc12", "cell line": "VERO 76", "endpoint": "EC50", "read by": "plaque count", "result": ">20 µM"}
{"smiles": "O=c1nc2oc(-c3ccccc3)cc2cn1COCCO", "cell line": "VERO", "endpoint": "EC90", "read by": "plaque count", "strain or isolate": "F", "result": ">100 µM"}
{"smiles": "C[C@H](Cc1ccc2c(c1)OCO2)[C@H](C)Cc1ccc2c(c1)OCO2", "endpoint": "EC50", "strain or isolate": "1", "result": "68.71 µg/mL"}
{"smiles": "NC(=O)c1c(Br)n(COC(CO)CO)c2ncnc(N)c12", "cell line": "HFF", "endpoint": "EC50", "read by": "ELISA", "result": ">100 µM"}
{"smiles": "CC1=C(/C=C/C(C)=C/C=C/C(C)=C/CO)C(C)(C)CCC1", "cell line": "HeLa", "endpoint": "EC50", "read by": "cytopathic effect", "strain or isolate": "KOS", "result": ">200 µg/mL"}
{"smiles": "[Cl][Sn]([Cl])([Cl])[c]1ccccc1", "cell line": "HFF", "endpoint": "EC50", "read by": "plaque count", "strain or isolate": "F", "result": "0.6 µg/mL"}
{"smiles": "CCCCCc1ccc(C#Cc2cn(COCCO)c(=O)[nH]c2=O)cc1", "cell line": "VERO", "endpoint": "EC50", "read by": "plaque count", "strain or isolate": "F", "result": ">10 µM"}
{"smiles": "Cc1ccc2c(c1)COP(=O)(OCCOCn1cnc3c(=O)[nH]c(N)nc31)O2", "cell line": "VERO", "endpoint": "EC50", "read by": "cytopathic effect", "strain or isolate": "KUPKA", "result": "0.91 µM"}
{"smiles": "NC[C@H]1O[C@H](O[C@H]2[C@H](O)[C@@H](O)[C@H](N)C[C@@H]2N)[C@H](N)[C@@H](O)[C@@H]1O", "cell line": "HeLa", "endpoint": "EC50", "read by": "cytopathic effect", "strain or isolate": "KOS", "result": ">200 µg/mL"}
{"smiles": "Nc1nc2c(ncn2CCC(CO)CO)c(=O)[nH]1", "cell line": "VERO", "endpoint": "EC50", "read by": "cytopathic effect", "strain or isolate": "KUPKA", "result": "1.15 µM"}
{"smiles": "CC(=O)N[C@H]1[C@@H](OC(=O)NS(=O)(=O)OC[C@H]2O[C@@H](n3ccc(=O)[nH]c3=O)[C@H](O)[C@@H]2O)O[C@H](COC(C)=O)[C@@H](OC(C)=O)[C@@H]1OC(C)=O", "cell line": "HeLa", "endpoint": "EC50", "read by": "plaque count", "strain or isolate": "KOS", "result": ">575 µM"}
{"smiles": "Nc1nc2c(ncn2CCC(CO)CO)c(=O)[nH]1", "cell line": "HEL", "endpoint": "EC50", "read by": "cytopathic effect", "strain or isolate": "ACV-resistant", "result": ">20 µg/mL"}
{"smiles": "COc1ccc2nc3cc(Cl)ccc3c(N[C@H]3CCCN4CCCC[C@H]34)c2c1", "cell line": "VERO 76", "endpoint": "EC50", "read by": "plaque count", "result": ">60 µM"}
{"smiles": "O=C(O)CP(=O)(O)O", "cell line": "HEL", "endpoint": "EC50", "read by": "cytopathic effect", "strain or isolate": "PCV-resistant/B", "result": "11 µg/mL"}
{"smiles": "[Cl][Sn]([Cl])([c]1ccccc1)[c]1ccccc1", "cell line": "HFF", "endpoint": "EC50", "read by": "plaque count", "strain or isolate": "F", "result": "0.3 µg/mL"}
{"smiles": "O=C1c2cc3ccoc3cc2O[C@@H]2COc3cc4c(cc3[C@H]12)OCO4", "cell line": "VERO", "endpoint": "EC50", "read by": "plaque count", "strain or isolate": "KOS", "result": ">50 µg/mL"}
{"smiles": "CC(=O)OCC(CCn1cnc2c(=O)[nH]c(N)nc21)COP1(=O)OCc2cccc(C)c2O1", "cell line": "VERO", "endpoint": "EC50", "read by": "cytopathic effect", "strain or isolate": "B2006 (TK-)", "result": "119 µM"}
{"smiles": "NC(=O)c1c(Br)n(COCCO)c2ncnc(N)c12", "cell line": "HFF", "endpoint": "EC50", "read by": "ELISA", "result": ">100 µM"}
{"smiles": "COc1ccc(Cl)c(C)c1C(=O)OC1CC(OC2C(O)CC(O[C@H]3CCC[C@@H]4[C@@H]3C=C[C@H]3CCCC/C=C/[C@@H]5C=C(C(=O)O)[C@H](C)C[C@]56OC(=O)C(=C6O)OC(=O)[C@@]43C)OC2C)OC(C)C1O", "cell line": "HeLa", "endpoint": "EC50", "read by": "cytopathic effect", "strain or isolate": "KOS", "result": ">200 µg/mL"}
{"smiles": "CC(C)OC1[C@H](n2ccc(=O)[nH]c2=O)O[C@H](COS(=O)(=O)NC(=O)O[C@H]2O[C@H](CO)[C@@H](O)[C@H](O)[C@H]2O)[C@H]1OC(C)C", "cell line": "HeLa", "endpoint": "EC50", "read by": "plaque count", "strain or isolate": "KOS", "result": ">350 µM"}
{"smiles": "CCCC[CH2][Sn]([Cl])([Cl])[CH2]CCCC", "cell line": "HFF", "endpoint": "EC50", "read by": "plaque count", "strain or isolate": "F", "result": "<1.4 µg/mL"}
{"smiles": "COc1ccc2nc3cc(Cl)ccc3c(NC[C@@H]3CCCN4CCCC[C@H]34)c2c1", "cell line": "VERO 76", "endpoint": "EC50", "read by": "plaque count", "result": ">11 µM"}
{"smiles": "N#Cc1c(N)n(COC(CO)CO)c2ncnc(N)c12", "cell line": "HFF", "endpoint": "EC50", "read by": "ELISA", "result": ">100 µM"}
{"smiles": "CC(=O)OC[C@H]1O[C@H](OC(=O)NS(=O)(=O)OC[C@H]2O[C@@H](n3ccc(=O)[nH]c3=O)[C@H](OC(C)C)[C@@H]2OC(C)C)[C@H](OC(C)=O)[C@@H](OC(C)=O)[C@@H]1OC(C)=O", "cell line": "HeLa", "endpoint": "EC50", "read by": "plaque count", "strain or isolate": "KOS", "result": ">540 µM"}
{"smiles": "Nc1nc2c(ncn2COCCO)c(=O)[nH]1", "cell line": "VERO", "endpoint": "EC50", "read by": "cytopathic effect", "strain or isolate": "B2006 (TK-)", "result": "57.7 µM"}
{"smiles": "NC(=O)O[C@H]1O[C@H](COCc2ccccc2)[C@@H](OCc2ccccc2)[C@H](OCc2ccccc2)[C@H]1OCc1ccccc1", "cell line": "HeLa", "endpoint": "EC50", "read by": "plaque count", "strain or isolate": "KOS", "result": ">350 µM"}
{"smiles": "CC[C@H]1OC(=O)[C@H](C)[C@@H](O[C@H]2C[C@@](C)(OC)[C@@H](O)[C@H](C)O2)[C@H](C)[C@@H](O[C@H]2O[C@@H](C)C[C@@H](N(C)C)[C@@H]2O)[C@](C)(O)C[C@@H](C)C(=O)[C@H](C)[C@@H](O)[C@]1(C)O", "cell line": "HeLa", "endpoint": "EC50", "read by": "cytopathic effect", "strain or isolate": "KOS", "result": ">200 µg/mL"}
{"smiles": "CCCCCc1ccc(-c2cc3cn(CC=C(CO)CO)c(=O)nc3o2)cc1", "cell line": "VERO", "endpoint": "EC50", "read by": "plaque count", "strain or isolate": "F", "result": "4.8 µM"}
{"smiles": "COc1ccc2nc3cc(Cl)ccc3c(NCCCN3CCOCC3)c2c1", "cell line": "VERO 76", "endpoint": "EC50", "read by": "plaque count", "result": ">52 µM"}
{"smiles": "COc1c2c(cc3ccoc13)C(=O)[C@@]1(O)c3cc4c(cc3OC[C@H]1O2)OCO4", "cell line": "VERO", "endpoint": "EC50", "read by": "plaque count", "strain or isolate": "KOS", "result": ">50 µg/mL"}
{"smiles": "N#Cc1c(Br)n([C@@H]2O[C@H](CO)[C@@H](O)[C@H]2O)c2ncnc(N)c12", "cell line": "HFF", "endpoint": "EC50", "read by": "ELISA", "result": "1.5 µM"}
{"smiles": "CCCCCCCCc1cc2cn(C/C=C/C(O)CO)c(=O)nc2o1", "cell line": "VERO", "endpoint": "EC50", "read by": "plaque count", "strain or isolate": "F", "result": ">10 µM"}
{"smiles": "NC(=O)c1cn([C@H]2C[C@H](O)[C@@H](CO)O2)c2ncnc(N)c12", "cell line": "BSC-1", "endpoint": "EC50", "read by": "plaque count", "strain or isolate": "S-148", "result": "37 µM"}

Repeating the final 7 entries:

smiles,cell line,conditions,endpoint,read by,strain or isolate,result
CC[C@H]1OC(=O)[C@H](C)[C@@H](O[C@H]2C[C@@](C)(OC)[C@@H](O)[C@H](C)O2)[C@H](C)[C@@H](O[C@H]2O[C@@H](C)C[C@@H](N(C)C)[C@@H]2O)[C@](C)(O)C[C@@H](C)C(=O)[C@H](C)[C@@H](O)[C@]1(C)O,HeLa,-,EC50,cytopathic effect,KOS,>200 µg/mL
CCCCCc1ccc(-c2cc3cn(CC=C(CO)CO)c(=O)nc3o2)cc1,VERO,-,EC50,plaque count,F,4.8 µM
COc1ccc2nc3cc(Cl)ccc3c(NCCCN3CCOCC3)c2c1,VERO 76,-,EC50,plaque count,-,>52 µM
COc1c2c(cc3ccoc13)C(=O)[C@@]1(O)c3cc4c(cc3OC[C@H]1O2)OCO4,VERO,-,EC50,plaque count,KOS,>50 µg/mL
N#Cc1c(Br)n([C@@H]2O[C@H](CO)[C@@H](O)[C@H]2O)c2ncnc(N)c12,HFF,-,EC50,ELISA,-,1.5 µM
CCCCCCCCc1cc2cn(C/C=C/C(O)CO)c(=O)nc2o1,VERO,-,EC50,plaque count,F,>10 µM
NC(=O)c1cn([C@H]2C[C@H](O)[C@@H](CO)O2)c2ncnc(N)c12,BSC-1,-,EC50,plaque count,S-148,37 µM